Compound potency records, mixed from different reports. Data source: NIAID ChemDB in PubChem.

Shared fields: growth or infection tests; species: Mycobacterium avium intracellulare; read-out: MIC

Neighbouring rows are from separate reports.

compound | strain | value
CO[C@H]1/C=C/O[C@@]2(C)Oc3c(C)c(O)c4c(=O)c(c5oc6cc(N7CCN(CC(C)C)CC7)cc(=O)c6nc5c4c3=C2O)NC(=O)/C(C)=C\C=C\[C@H](C)[C@H](O)[C@@H](C)[C@@H](O)[C@@H](C)[C@H](OC(C)=O)[C@@H]1C | N-551 (HIV-) | ≤0.0125 µg/mL
CCCCCCCCC(=O)O[C@H]1[C@H](C)[C@@H](O[C@@H]2O[C@H](C)C[C@H](N(C)C)[C@H]2O)C(C)(O)C[C@@H](C)/C(=N\OCCCOc2ccccc2)[C@H](C)[C@@H](O)[C@](C)(O)[C@@H](CC)OC(=O)[C@@H]1C | 20066 (clarithromycin-susceptible) | 6.25 µg/mL
NNC(=O)c1ccncc1 | N-897 (HIV-) | 16 µg/mL
CC(=O)NC[C@H]1CN(c2ccc(N3CCN(c4ccc([N+](=O)[O-])s4)CC3)c(F)c2)C(=O)O1 | 356/97 | 0.25 µg/mL
CC[C@H]1OC(=O)[C@H](C)[C@@H](O[C@H]2C[C@@](C)(OC)[C@@H](OC(C)=O)[C@H](C)O2)[C@H](C)[C@@H](O[C@@H]2O[C@H](C)C[C@H](N(C)C)[C@H]2OC(=O)NNCc2ccc(OC)cc2)C(C)(O)C[C@@H](C)/C(=N\OCCCC2CCCCC2)[C@H](C)[C@@H](O)[C@]1(C)O | 20066 (clarithromycin-susceptible) | 0.39 µg/mL
CC1(C)S[C@@H]2[C@H](NC(=O)[C@H](C(=O)[O-])c3ccsc3)C(=O)N2[C@H]1C(=O)[O-].[Na+].[Na+] | CIPT 140310019 | >50 µg/mL
CO[C@H]1/C=C/O[C@@]2(C)Oc3c(C)c(O)c4c(O)c(c5c(c4c3C2=O)NC2(CCN(CC(C)C)CC2)N=5)=NC(=O)/C(C)=C\C=C\[C@H](C)[C@H](O)[C@@H](C)[C@@H](O)[C@@H](C)[C@H](OC(C)=O)[C@@H]1C | 12-Feb | 0.125 µg/mL
CC[C@H]1OC(=O)[C@H](C)[C@@H](OC2C[C@@](C)(OC)[C@@H](O)[C@H](C)O2)[C@H](C)[C@@H](O[C@@H]2O[C@H](C)C[C@H](N(C)C)[C@H]2O)C(C)(O)C[C@@H](C)/C(=N\OCCc2cccs2)[C@H](C)[C@@H](O)[C@]1(C)O | 20066 (clarithromycin-susceptible) | 3.13 µg/mL
CC(C)N=c1cc2n(-c3ccc(Cl)cc3)c3ccccc3nc-2cc1Nc1ccc(Cl)cc1 | TB60 | 1 µg/mL
CN(C)CCCN1c2ccccc2Sc2ccc(Cl)cc21 | R 1631 | 25 µg/mL
CN[C@@H]1[C@H](O[C@H]2[C@H](O[C@H]3[C@H](O)[C@@H](O)[C@H](N=C(N)N)[C@@H](O)[C@@H]3N=C(N)N)O[C@@H](C)[C@]2(O)C=O)O[C@@H](CO)[C@H](O)[C@H]1O | CIPT 140310030 | >50 µg/mL
CC/C=C/CCNC(=O)O[C@H]1C(O[C@@H]2[C@@H](C)[C@H](O[C@H]3C[C@@](C)(OC)[C@@H](OC(C)=O)[C@H](C)O3)[C@@H](C)C(=O)O[C@H](CC)[C@@](C)(O)[C@H](O)[C@@H](C)/C(=N/OCCCC3CCCCC3)[C@H](C)CC2(C)O)O[C@H](C)C[C@@H]1N(C)C | 20073 | 0.1 µg/mL
CC[C@H]1OC(=O)[C@H](C)[C@@H](O[C@H]2C[C@@](C)(OC)[C@@H](O)[C@H](C)O2)[C@H](C)[C@@H](O[C@@H]2O[C@H](C)C[C@H](N(C)C)[C@H]2O)[C@](C)(OC)C[C@@H](C)C(=O)[C@H](C)[C@@H](O)[C@]1(C)O | N-486 (HIV-) | 2 µg/mL
CC[C@H]1OC(=O)[C@H](C)[C@@H](O[C@H]2C[C@@](C)(OC)[C@@H](OC(C)=O)[C@H](C)O2)[C@H](C)[C@@H](OC2O[C@H](C)C[C@H](N(C)C)[C@H]2OC(N)=O)C(C)(O)C[C@@H](C)/C(=N\OCCCC2CCCCC2)[C@H](C)[C@@H](O)[C@]1(C)O | 20066 | 3.13 µg/mL
Cc1onc(-c2ccccc2Cl)c1C(=O)N[C@@H]1C(=O)N2[C@@H]1SC(C)(C)[C@@H]2C(=O)O | CIPT 140310019 | >100 µg/mL
CC[C@H]1OC(=O)[C@H](C)[C@@H](O[C@H]2C[C@@](C)(OC)[C@@H](O)[C@H](C)O2)[C@H](C)[C@@H](O[C@@H]2O[C@H](C)C[C@H](N(C)C)[C@H]2O)[C@](C)(O)C[C@@H](C)/C(=N\OC)[C@H](C)[C@@H](O)[C@]1(C)O | 20066 (clarithromycin-susceptible) | 12.5 µg/mL
CCNC(=O)O[C@H]1C(O[C@@H]2[C@@H](C)[C@H](O[C@H]3C[C@@](C)(OC)[C@@H](OC(C)=O)[C@H](C)O3)[C@@H](C)C(=O)O[C@H](CC)[C@@](C)(O)[C@H](O)[C@@H](C)/C(=N/OCCCC3CCCCC3)[C@H](C)CC2(C)O)O[C@H](C)C[C@@H]1N(C)C | 20067 | 6.25 µg/mL
OCCN1CCN(CCC=C2c3ccccc3Sc3ccc(Cl)cc32)CC1 | R 6550 | 12.5 µg/mL
CCNC(=O)[C@@H](NC(=O)Cc1ccccc1)[C@@H]1N[C@@H](C(=O)NCCNC(=O)[C@@H]2N[C@@H]([C@H](NC(=O)Cc3ccccc3)C(=O)NCC)SC2(C)C)C(C)(C)S1 | CIPT 140310031 | 25 µg/mL
CCCCCCCCCCCCCCN(C)C(=O)O[C@H]1C(O[C@@H]2[C@@H](C)[C@H](O[C@H]3C[C@@](C)(OC)[C@@H](OC(C)=O)[C@H](C)O3)[C@@H](C)C(=O)O[C@H](CC)[C@@](C)(O)[C@H](O)[C@@H](C)/C(=N/OCCCC3CCCCC3)[C@H](C)CC2(C)O)O[C@H](C)C[C@@H]1N(C)C | 20075 | 0.2 µg/mL
CCCCCCCCCCCCNNC(=O)O[C@H]1[C@H](O[C@@H]2[C@@H](C)[C@H](O[C@H]3C[C@@](C)(OC)[C@@H](OC(C)=O)[C@H](C)O3)[C@@H](C)C(=O)O[C@H](CC)[C@@](C)(O)[C@H](O)[C@@H](C)/C(=N/OCCCC3CCCCC3)[C@H](C)CC2(C)O)O[C@H](C)C[C@@H]1N(C)C | 20066 (clarithromycin-susceptible) | 50 µg/mL
OCCN1CCN(CC/C=C2/c3ccccc3Sc3ccc(Cl)cc32)CC1 | E 48067 | 12.5 µg/mL
CCO/N=C1\[C@H](C)CC(C)(O)[C@H](O[C@@H]2O[C@H](C)C[C@H](N(C)C)[C@H]2O)[C@@H](C)[C@H](OC2C[C@@](C)(OC)[C@@H](O)[C@H](C)O2)[C@@H](C)C(=O)O[C@H](CC)[C@@](C)(O)[C@H](O)[C@H]1C | 20066 (clarithromycin-susceptible) | 6.25 µg/mL
CN[C@@H]1[C@H](O[C@H]2[C@H](O[C@H]3[C@H](O)[C@@H](O)[C@H](N=C(N)N)[C@@H](O)[C@@H]3N=C(N)N)O[C@@H](C)[C@]2(O)C=O)O[C@@H](CO)[C@H](O)[C@H]1O | N-897 (HIV-) | 8 µg/mL
CC[C@H]1OC(=O)[C@H](C)[C@@H](OC2C[C@@](C)(OC)[C@@H](O)[C@H](C)O2)[C@H](C)[C@@H](O[C@@H]2O[C@H](C)C[C@H](N(C)C)[C@H]2O)C(C)(O)C[C@@H](C)/C(=N\OCCCCCc2ccccc2)[C@H](C)[C@@H](O)[C@]1(C)O | 20066 (clarithromycin-susceptible) | 3.13 µg/mL
COc1ccc2c(c1)N(C[C@H](C)CN(C)C)c1ccccc1S2 | R 8411 | 25 µg/mL

The last 4 rows once more:

compound,strain,value
CCO/N=C1\[C@H](C)CC(C)(O)[C@H](O[C@@H]2O[C@H](C)C[C@H](N(C)C)[C@H]2O)[C@@H](C)[C@H](OC2C[C@@](C)(OC)[C@@H](O)[C@H](C)O2)[C@@H](C)C(=O)O[C@H](CC)[C@@](C)(O)[C@H](O)[C@H]1C,20066 (clarithromycin-susceptible),6.25 µg/mL
CN[C@@H]1[C@H](O[C@H]2[C@H](O[C@H]3[C@H](O)[C@@H](O)[C@H](N=C(N)N)[C@@H](O)[C@@H]3N=C(N)N)O[C@@H](C)[C@]2(O)C=O)O[C@@H](CO)[C@H](O)[C@H]1O,N-897 (HIV-),8 µg/mL
CC[C@H]1OC(=O)[C@H](C)[C@@H](OC2C[C@@](C)(OC)[C@@H](O)[C@H](C)O2)[C@H](C)[C@@H](O[C@@H]2O[C@H](C)C[C@H](N(C)C)[C@H]2O)C(C)(O)C[C@@H](C)/C(=N\OCCCCCc2ccccc2)[C@H](C)[C@@H](O)[C@]1(C)O,20066 (clarithromycin-susceptible),3.13 µg/mL
COc1ccc2c(c1)N(C[C@H](C)CN(C)C)c1ccccc1S2,R 8411,25 µg/mL